For test [1], the target named is ACE2. As to the kind of experiment: ratio of ACE2 binding ELISA to Spike RBD detection ELISA; concentrated supernatant of virus-infected Vero cells. A general note: ELISA stands for enzyme-linked immunosorbent assay.
Test [2] addresses ACE2.
The target in test [3] is ACE2. Put plainly: ACE2 binding detection ELISA (ACE2 on solid phase, detection with anti-spikeRBD antibody); concentrated supernatant of virus-infected Vero cells.

Read-outs that look alike come from different tables or passages of the source.

Regarding “Cov2S1Fc (polypeptide D: wild-type leader sequence, subunit 1 (S1) of the spike protein, Fc region of human IgG1 at the C-terminus) (Fc fusion)”, the ACE2 bind/ Spike RBD turned out to be 2.07 with ACE2 [1] and 0.334 in the test with ACE2 [2]. Moreover, the ACE2 bind was determined as 1390 ng/mL in the test with ACE2 [2] and 5.6 ng/mL with ACE2 [3].

(Values after patent EP4574169A1.)
